Measurements reported in PubChem BioAssay AID624099 (ICCB-Longwood, 2012).
The whole screen tested about 21,000 reagents; this is a random part of them. 497 of all reagents (2.4%) were called active. 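Higher z means weaker E2 silencing; only reporter increases were scored, and knock-downs that hurt cell survival may mask genuine repressor factors.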

Screen: 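Knock-downs relieving repression by E2 of an HPV18 LCR luciferase reporter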 (primary screen)
Cells: human C33A cervical carcinoma cells (HPV-negative) stably expressing BPV1 E2 and an HPV18 LCR luciferase reporter
Reagents: siRNA pool against human genes, 40 nM
Duration: 72 h
Detection: 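Per-well luciferase luminescence, z-scored on each plate against the plate mean and SD with control wells left out, then averaged across three replicate plates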
Direction: mean z-score and z-score: higher = stronger reporter signal, weaker E2 silencing
Rule for the call: 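Hit if mean z-score reaches 2 and two or more of three replicate z-scores also reach 2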

Target gene | mean z-score | z-score, replicate A | z-score, replicate B | z-score, replicate C | call
MIF4GD (GeneID 57409) | 0.12 | 0.24 | 0.28 | -0.17 | inactive
LRRC15 (GeneID 131578) | -1.34 | -0.98 | -1.54 | -1.51 | inactive
APOBEC3F (GeneID 200316) | 0.16 | 0.18 | 0.26 | 0.03 | inactive
RAB44 (GeneID 401258) | -0.09 | -0.26 | -0.25 | 0.24 | inactive
NDUFA13 (GeneID 51079) | 1.16 | 0.63 | 1.7 | 1.15 | inactive
FOXN4 (GeneID 121643) | 0.88 | 0.9 | 0.32 | 1.43 | inactive
CXCL11 (GeneID 6373) | 2.17 | 1.9 | 2.38 | 2.23 | active
SRFBP1 (GeneID 153443) | -1.16 | -0.95 | -1.3 | -1.23 | inactive
ANKRD49 (GeneID 54851) | -0.93 | -1.24 | -0.65 | -0.89 | inactive
FBXW12 (GeneID 285231) | -0.64 | -0.48 | -0.74 | -0.7 | inactive
LRRC23 (GeneID 10233) | 3.87 | 4.09 | 4.11 | 3.4 | active
VLDLR (GeneID 7436) | -0.35 | -0.46 | -0.22 | -0.37 | inactive
ANKRD52 (GeneID 283373) | -0.13 | -0.06 | -0.35 | 0.02 | inactive
UQCC1 (GeneID 55245) | 0.12 | 0 | 0.01 | 0.35 | inactive
PIGC (GeneID 5279) | -0.16 | -0.36 | 0.1 | -0.21 | inactive
TAT (GeneID 6898) | 0.74 | 0.71 | 0.81 | 0.69 | inactive
NVL (GeneID 4931) | -0.16 | -0.1 | 0.02 | -0.41 | inactive
LTAP1 (GeneID 25912) | 1.56 | 0.9 | 2.23 | 1.56 | inactive
B4GALT1 (GeneID 2683) | -0.71 | -0.42 | -0.54 | -1.17 | inactive
BMP8B (GeneID 656) | -1.27 | -1.23 | -1.22 | -1.36 | inactive
TMEM243 (GeneID 79161) | -0.2 | -0.49 | -0.16 | 0.04 | inactive
PDCD11 (GeneID 22984) | -0.62 | -0.55 | -0.8 | -0.52 | inactive
LOC401016 (retired record) (GeneID 401016) | 0.74 | 1.04 | 0.63 | 0.54 | inactive
SLC27A2 (GeneID 11001) | -0.04 | -0.46 | -0.05 | 0.39 | inactive
ARPC5L (GeneID 81873) | 0.25 | 0.28 | 0 | 0.48 | inactive
NABP1 (GeneID 64859) | 0.7 | 0.66 | 0.71 | 0.71 | inactive
AMY1A (GeneID 276) | -0.97 | -1.08 | -0.57 | -1.24 | inactive
RUBCN (GeneID 9711) | -0.16 | -0.39 | -0.13 | 0.03 | inactive
WFDC9 (GeneID 259240) | -0.22 | -0.45 | -0.1 | -0.1 | inactive
CALD1 (GeneID 800) | 0.15 | -0.19 | 0.37 | 0.27 | inactive
MYL9 (GeneID 10398) | -0.67 | -0.65 | -0.82 | -0.54 | inactive
MAP2K7 (GeneID 5609) | -0.44 | -0.42 | -0.21 | -0.69 | inactive
ZPBP (GeneID 11055) | -1.13 | -0.94 | -1.38 | -1.07 | inactive
UBXN1 (GeneID 51035) | 0.3 | 0.25 | 0.45 | 0.19 | inactive
B4GALNT3 (GeneID 283358) | 0.01 | 0.33 | -0.13 | -0.16 | inactive
BCAM (GeneID 4059) | -0.78 | -0.67 | -0.86 | -0.8 | inactive
CHPF2 (GeneID 54480) | 1.76 | 1.58 | 2.01 | 1.68 | inactive
LOC340228 (retired record) (GeneID 340228) | -0.37 | -0.4 | -0.44 | -0.25 | inactive
LINC03086 (GeneID 388780) | 0.92 | 0.9 | 0.91 | 0.94 | inactive
PCDH7 (GeneID 5099) | -1.32 | -1.04 | -1.52 | -1.41 | inactive
PPP1R3F (GeneID 89801) | -1.52 | -1.49 | -1.7 | -1.38 | inactive
WIPI2 (GeneID 26100) | 0.23 | 0.43 | 0.1 | 0.15 | inactive
NSMCE4A (GeneID 54780) | -0.89 | -1.11 | -0.84 | -0.72 | inactive
PSPH (GeneID 5723) | -0.29 | -0.2 | -0.39 | -0.27 | inactive
PEBP1 (GeneID 5037) | -0.05 | -0.14 | 0.08 | -0.08 | inactive
IPO5 (GeneID 3843) | -0.2 | -0.12 | -0.27 | -0.2 | inactive
ARHGEF2 (GeneID 9181) | -0.13 | -0.1 | -0.28 | -0.01 | inactive
BMAL2 (GeneID 56938) | 0.06 | -0.05 | 0.13 | 0.09 | inactive
CSTPP1 (GeneID 79096) | -2.36 | -2.53 | -2.19 | -2.36 | inactive
RPSAP55 (GeneID 388122) | -2.5 | -2.98 | -2.27 | -2.27 | inactive
DMWD (GeneID 1762) | -1.47 | -1.63 | -1.3 | -1.48 | inactive
BIRC6 (GeneID 57448) | 0.56 | 0.43 | 0.82 | 0.44 | inactive
PILRA (GeneID 29992) | 0.07 | -0.45 | -0.15 | 0.82 | inactive
SNX9 (GeneID 51429) | 0.65 | 0.61 | 0.88 | 0.45 | inactive
TNFRSF25 (GeneID 8718) | 0.16 | 0.24 | 0.23 | 0 | inactive
ABCF1 (GeneID 23) | 0.42 | 0.18 | 0.1 | 0.97 | inactive
CDK5 (GeneID 1020) | 0.02 | 0.44 | -0.26 | -0.11 | inactive
